Measured values from several laboratories, pooled; numbers as filed in NIAID ChemDB.

All rows: target-level tests; species: HIV-1; target: Reverse transcriptase

An empty or dashed field is not shown.

structure | changes | method | strain | read-out | value
CCN1c2ncc(CCOc3ccc(/C=C(\C)C(=O)O)c4ccccc34)cc2C(=O)N(C)c2ccc(Cl)nc21 | RT-V106A | nucleotide incorporation / radiometric | - | IC50 | 0.1–1 µM
COc1cc2c(cc1[N+](=O)[O-])CN(c1nn3c(C4CC4)nnc3c3ccccc13)CC2 | - | RT activity / fluorescence | 98US_MSC5016 | IC90 | 83.6 µM
CCN1c2ncc(CCOc3ccc(C(=O)O)c4ccccc34)cc2C(=O)Nc2c(C)ccnc21 | RT-Y188L | nucleotide incorporation / radiometric | - | IC50 | >1 µM
CCN1c2ncc(CCOc3ccc(-c4ccc(CCC(=O)O)cc4)cc3C)cc2C(=O)N(C)c2cccnc21 | RT-K103N Y181C | nucleotide incorporation / radiometric | IIIB | IC50 | <0.05 µM
CCN1c2ncc(CCOc3ccc(CC(=O)O)c4ccccc34)cc2C(=O)N(C)c2cccnc21 | RT-K103N Y181C | nucleotide incorporation / radiometric | - | IC50 | 0.1–1 µM
CCc1cc(CCc2nc3ccccc3o2)c(=O)[nH]c1C | RT-Y188F | nucleotide incorporation | - | IC50 | 0.0273 µM
CC(C)(C)c1ccc(-n2nnnc2SCC(=O)Nc2ccc(C(=O)Nc3cccc4cccnc34)cc2Cl)c(Cl)c1 | - | PicoGreen / fluorescence | WT | IC50 | <1 µM
CCN1c2ncc(CCOc3ccc(-c4cccc(CC(=O)O)c4)cc3C)cc2C(=O)N(C)c2cccnc21 | - | nucleotide incorporation / radiometric | IIIB | IC50 | <0.05 µM
O=C(CSc1nnnn1-c1ccc(C2CC2)cc1Cl)Nc1ccc(C(=O)NCc2cc[n+]([O-])cc2)cc1Cl | - | PicoGreen / fluorescence | WT | IC50 | <1 µM
CCN1c2ncc(CCOc3ccc(CC(C)C(=O)O)c4ccccc34)cc2C(=O)Nc2c(C)ccnc21 | RT-K103N Y181C | nucleotide incorporation / radiometric | - | IC50 | >1 µM
CCN1c2ncc(CCOc3ccc(-c4ccc(C(=O)O)o4)cc3)cc2C(=O)N(C)c2cccnc21 | - | nucleotide incorporation / radiometric | IIIB | IC50 | <0.05 µM
CN(C)c1ccc(CC(=O)Nc2ccc(NC(=O)CSc3nnnn3-c3ccc(C(C)(C)C)cc3Cl)c(Cl)c2)cc1 | - | PicoGreen / fluorescence | WT | IC50 | <1 µM
CCN1c2ncc(CCOc3ccc(-c4ccc(CC(=O)O)c(C)c4)cc3C)cc2C(=O)N(C)c2cccnc21 | - | nucleotide incorporation / radiometric | IIIB | IC50 | <0.05 µM
CC(C)(C(=O)O)c1ccc(-c2ccc(NC(=O)CSc3nnnn3-c3ccc(C4CC4)cc3Cl)c(Cl)c2)cc1 | RT-K103 Y181C | PicoGreen / fluorescence | - | IC50 | <1 µM
O=[N+]([O-])c1ccc2c(c1)CN(c1nn3c(C4CC4)nnc3c3ccccc13)CC2 | - | RT activity / fluorescence | KER2008 | IC50 | 6.22 µM
CCN1c2ncc(CCOc3ccc(CC(=O)O)c4ccccc34)cc2C(=O)Nc2c(C)cc(Cl)nc21 | RT-V106A | nucleotide incorporation / radiometric | - | IC50 | 0.1–1 µM
CCN1c2ncc(CCOc3ccc(C(=O)Nc4ccc[n+]([O-])c4)cc3C)cc2C(=O)Nc2c(C)ccnc21 | RT-K103N Y181C | nucleotide incorporation / radiometric | IIIB | IC50 | <0.05 µM
CC(C)(C)c1ccc(-n2nnnc2SCC(=O)Nc2ccc(C#CCO)cc2Cl)c(Cl)c1 | RT-K103 Y181C | PicoGreen / fluorescence | - | IC50 | <1 µM
CCN1c2ncc(CCOc3ccc(-c4ccc(F)c(C(=O)O)c4)cc3)cc2C(=O)N(C)c2cccnc21 | RT-K103N Y181C | nucleotide incorporation / radiometric | IIIB | IC50 | >0.1 µM
CC(C)(C#Cc1ccc(NC(=O)CSc2nnnn2-c2cc(C(C)(C)C)cc(Br)c2Cl)c(Cl)c1)NC(=O)CN1CCNCC1 | - | PicoGreen / fluorescence | WT | IC50 | <1 µM
CCN1c2ncc(CCOc3ccc(C(=O)N(C)Cc4ccc(C(=O)O)cc4)cc3C)cc2C(=O)N(C)c2cccnc21 | RT-K103N Y181C | nucleotide incorporation / radiometric | IIIB | IC50 | 0.05–0.1 µM
COc1ccc2c(c1)CN(c1nn3c(-c4cccs4)nnc3c3ccccc13)CC2 | - | RT activity / fluorescence | KER2008 | IC90 | 96.1 µM
CC(C)(C)c1ccc(-n2nnnc2SCC(=O)Nc2ccc(C(=O)NCc3ccco3)cc2Cl)c(Cl)c1 | - | PicoGreen / fluorescence | WT | IC50 | <1 µM
CCN1c2ncc(CCOc3ccc(-c4ccc(CC(=O)O)cc4)cc3C)cc2C(=O)Nc2c(C)ccnc21 | RT-K103N Y181C | nucleotide incorporation / radiometric | IIIB | IC50 | <0.05 µM
CC(C)(C)c1ccc(-n2nnnc2SCC(=O)Nc2ccc(C(=O)Nc3cccc(C(=O)O)c3)cc2Cl)c(Cl)c1 | - | PicoGreen / fluorescence | WT | IC50 | <1 µM
FC(F)(F)c1cccc2c1CCN(c1nn3c(C4CC4)nnc3c3ccccc13)C2 | - | RT activity / fluorescence | 98US_MSC5016 | IC50 | 22.4 µM
CC(C)(C)c1ccc(-n2nnnc2SCC(=O)Nc2ccc(OCCN3CCCCC3)cc2Cl)c(Cl)c1 | RT-K103 Y181C | PicoGreen / fluorescence | - | IC50 | <1 µM
CCN1c2ncc(CCOc3ccc(C(=O)O)c4c3CCCC4)cc2C(=O)N(C)c2ccc(F)nc21 | RT-Y188L | nucleotide incorporation / radiometric | - | IC50 | 0.1–1 µM

Repeating the final 2 entries:

structure	changes	method	strain	read-out	value
CC(C)(C)c1ccc(-n2nnnc2SCC(=O)Nc2ccc(OCCN3CCCCC3)cc2Cl)c(Cl)c1	RT-K103 Y181C	PicoGreen / fluorescence	-	IC50	<1 µM
CCN1c2ncc(CCOc3ccc(C(=O)O)c4c3CCCC4)cc2C(=O)N(C)c2ccc(F)nc21	RT-Y188L	nucleotide incorporation / radiometric	-	IC50	0.1–1 µM

a–b is a range or a potency band. ICn is the concentration giving n% inhibition. Neighbouring rows are from separate reports.